Test results from patent US20230174472A1, “THERAPEUTIC USE OF PLEUROMUTILINS” (priority 2020, published 2023).

Legend:
[1] = system: Zika virus (strain ZIKVPRVABC59); test: inhibition of virus-induced CPE, Zika virus in Huh7 cells; type: cell-based; settings: Example 13
Procedure: The Zika virus strain PRVABC59 obtained from ATCC (catalog VR-1843) […] was grown in Rhesus monkey kidney cells for the production of stock virus pools.
Cell viability determination as well as EC50 and TC50 calculations were performed as described in Examples 6 and 8.

[2] = system: alpha coronavirus 229E (HCoV-229E); test: inhibition of virus-induced CPE, CoV229E in MRC-5 cells (XTT); type: cell-based
Procedure: The antiviral compound Remdesivir served as positive control.
Lefamulin (as acetate) was evaluated using different treatment conditions of 4 h, 1 h or 0 h incubation prior to virus addition and addition 1 h after infection For this particular set of experiments, coronavirus was diluted 1:200 in assay medium and added at 100 μL/well to achieve approximately 90% cell killing in the untreated virus control wells (MOI of 0.001).

[3] = Example 6, ratio of EC50 and TC50

| Compound | Therapeutic Index [1] | Therapeutic Index [2, 3] | Therapeutic Index ([2]; Example 7, 0 h pretreatment) | Therapeutic Index ([2]; Example 7, 1 h post-infection) | Therapeutic Index ([2]; Example 7, 1 h pretreatment) | Therapeutic Index ([2]; Example 7, 4 h pretreatment) |
| --- | --- | --- | --- | --- | --- | --- |
| CC(C)OC(=O)[C@H](C)N[P@](=O)(OC[C@H]1O[C@@H](n2ccc(=O)[nH]c2=O)[C@](C)(F)[C@@H]1O)Oc1ccccc1 [Sofosbuvir, reference compound] | >15.4 |  |  |  |  |  |
| C=C[C@]1(C)C[C@@H](OC(=O)CS[C@@H]2CC[C@@H](N)C[C@H]2O)[C@]2(C)C(C)CC[C@]3(CCC(=O)[C@H]32)[C@@H](C)[C@@H]1O (stereo partly drawn) [Lefamulin, 14-O-{[(1R, 2R, 4R)-4-amino-2-hydroxy-cyclohexylsulfanyl]-acetyl}-mutilin] | 8.42 | 14.3 | >16.2 | >3.31 | >23.1 | >22.9 |
| C=C[C@]1(C)C[C@@H](OC(=O)CSCCN(CC)CC)[C@]2(C)[C@H](C)CC[C@]3(CCC(=O)[C@H]32)[C@@H](C)[C@@H]1O [Tiamulin, reference compound] |  | 2.58 |  |  |  |  |
